Values of other authors, collected in US20230218581A1, “COMPOSITIONS AND METHODS COMPRISING DENDRIMERS AND THERAPEUTIC AGENTS” (The Johns Hopkins University, priority 2020, published 2023).

How the values were obtained:
[1] = system: human immunodeficiency virus (HIV); conditions: tested form: 2HCl; cited from earlier work
Zika virus [2] = conditions: human fetal astrocytes; tested form: 2HCl; cited from earlier work
Zika virus [3] = conditions: murine neuronal cell cultures; tested form: 2HCl; cited from earlier work
[4] = system: kidney cells exposed to Epsilon-toxin; conditions: tested form: 2HCl; cited from earlier work

In the case of `O=C(C=Cc1ccc(C=CC(=O)Nc2ccc(C3=NCCN3)cc2)cc1)Nc1ccc(C2=NCCN2)cc1`, the “dendritic cell-mediated infection of healthy CD4+ T lymphocytes” value [1] is given as “reduced”, the Zika virus propagation (Zika virus [2]) is given as “diminished Zika virus propagation” and the “EV release and viral RNA levels” value (Zika virus [3]) is given as “reduced EV release and diminished viral RNA levels”. The cell death [4] was “reduced cell-death”.
